In patent US9587005B2 (priority 2010, dated 2017):
One purity is given for all peptides; the source may state it once.

Test: general procedure: Boc solid-phase peptide synthesis; MBHA resin, 100-180 mesh, 1% DVB, loading 0.7-1.0 mmol/g (Midwest Biotech); DEPBT/DIEA single couplings; DIC for acylation
Conditions: Analytical HPLC, Xterra C8 at 220 nm or Zorbax SB-C8 at 214 nm

Substance	final HPLC purity (lipidation step) [%+]	final HPLC purity (whole synthesis, scale of the general procedure 0.2 mmole) [%+]
HaibQGTFTSDYSKYLDERAAQDFVQWLLDGGPSSGAPPPSC(S-palmityl)G-amide	90	
YaibQGTFTSDYSKYLDERAAQDFVQWLLDGGPSSGAPPPSK(K-γEC16,γEC12)G-NH2		90
